## Replication capacity of HIV-1 mutants, p6*

Source: Al-Mawsawi et al. 2014 (doi:10.1186/s12977-014-0124-6), supplementary data.

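Random point mutant libraries of HIV-1 NL4-3, one for each of seven fragments, were passaged in CEM T lymphocytes. The RC index is the frequency of a change after passage round 2 divided by its frequency in the plasmid library.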

Protein: p6* of HIV-1 NL4-3, numbered from its first residue. This is p6* (p6pol) in the Gag-Pol frame, not Gag p6; residue 1 starts at base 2109, after the 8-residue transframe peptide. The source prints no sequence; the chain below is taken from UniProt P12497, a closely related isolate, and fits the source at the 45 positions it covers.
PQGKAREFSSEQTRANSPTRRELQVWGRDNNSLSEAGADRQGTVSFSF
The overlapping Gag p6 frame may change too; the source does not say.
"Other frame" gives the effect on an overlapping gene as the source lists it; other overlaps (genes, RNA elements) are not shown.

Values are the RC index; higher means better tolerated. The authors read about 0.1 or less as lethal, 0.1-0.2 as attenuated and 0.2 or more as tolerated. A change reads original residue, position, new residue. The authors read an index above 1 as above wild type (1.9% of all changes in the genome).

* E22D (base G2174T) = 0.103
* F8L (base T2130C, other frame Gag silent) = 0.132
* E11D (base G2141C) = 0.104
* S17G (base A2157G) = 0.249
* V25L (base G2181C) = 0.0385
* N30K (base C2198A) = 0.145
* P1T (base C2109A, other frame Gag silent) = 0.0492
* F48S (base T2251C) = 0.0557
* V25D (base T2182A) = 0.0559
* V44L (base G2238T) = 0.126
* T43A (base A2235G) = 0.0415
* S17I (base G2158T) = 0.0560
* N31D (base A2199G) = 0.0776
* E11K (base G2139A) = 0.106
* K4T (base A2119C, other frame Gag silent) = 0.0502
* R21I (base G2170T) = 0.140
* K4E (base A2118G, other frame Gag silent) = 0.0507
* F48I (base T2250A) = 0.0314
* F46S (base T2245C) = 0.0692
* R21S (base A2171T) = 0.0239
* E35D (base A2213T) = 0.0539
* R21K (base G2170A) = 0.568
* G27V (base G2188T) = 0.194
* G27E (base G2188A) = 0.435
* S34L (base C2209T) = 0.149
* L33H (base T2206A) = 0.0218
* T19A (base A2163G) = 0.0488
* T19P (base A2163C) = 0.0678
* R40G (base A2226G) = 0.0651
* V25I (base G2181A) = 0.290
* D39V (base A2224T) = 0.0262
* S9P (base T2133C, other frame Gag silent) = 0.0989
* E35V (base A2212T) = 0.0411
* R6W (base A2124T, other frame Gag silent) = 0.0307
* A15S (base G2151T) = 0.0452
* D29Y (base G2193T) = 0.137
* G37E (base G2218A) = 0.0740
* N16S (base A2155G) = 0.120
* S32A (base T2202G) = 0.0472
* F48L (base T2250C) = 0.0747
* G42R (base G2232A) = 0.800
* F46I (base T2244A) = 0.0323
* A36E (base C2215A) = 0.0858
* R14G (base A2148G) = 0.0848
* S47G (base A2247G) = 0.0674
* T13S (base C2146G) = 0.0673
* Q41E (base C2229G) = 0.0663
* S17R (base A2157C) = 0.113
* S17C (base A2157T) = 0.0482
* S45F (base C2242T) = 0.290
* D29N (base G2193A) = 0.278
* R28S (base A2192C) = 0.132
* Q12P (base A2143C) = 0.0268
* R14S (base A2150T) = 0.0384
* D29G (base A2194G) = 0.0514
* W26C (base G2186T) = 0.185
* L33R (base T2206G) = 0.0858
* G37V (base G2218T) = 0.0230
* W26R (base T2184C) = 0.0400
* P18L (base C2161T) = 0.0621
* R6G (base A2124G, other frame Gag silent) = 0.0812
* E35Q (base G2211C) = 0.0310
* S47C (base A2247T) = 0.0327
* N16D (base A2154G) = 0.162
* E35K (base G2211A) = 0.793
* R21G (base A2169G) = 0.0257
* R40K (base G2227A) = 0.215
* L33F (base C2205T) = 0.183
* S34P (base T2208C) = 0.0730
* D29V (base A2194T) = 0.0217
* N30S (base A2197G) = 0.0584
* S17N (base G2158A) = 0.199
* D29H (base G2193C) = 0.0136
* R20K (base G2167A) = 0.245
* L23I (base C2175A) = 0.0663
* V44E (base T2239A) = 0.0216

The last 9 entries again:

| change | base | other frame | replication capacity index |
|---|---|---|---|
| L33F | C2205T | none | 0.183 |
| S34P | T2208C | none | 0.0730 |
| D29V | A2194T | none | 0.0217 |
| N30S | A2197G | none | 0.0584 |
| S17N | G2158A | none | 0.199 |
| D29H | G2193C | none | 0.0136 |
| R20K | G2167A | none | 0.245 |
| L23I | C2175A | none | 0.0663 |
| V44E | T2239A | none | 0.0216 |

Clones carried about five changes per kilobase, which can drag down the index of neutral changes. Base changes are numbered along pNL4-3.